Results of unrelated studies side by side (data: NIAID ChemDB).

All rows: enzyme or target tests

Conditions beyond the fields shown may differ between rows.

compound | method | strain | endpoint | protein | tested at | organism | result
CCO[C@@H]([C@@H]1OC(C(=O)O)=C[C@H](N=C(N)N)[C@H]1NC(C)=O)[C@H](O)CO | - | A/PR/8/34 | IC50 | Sialidase | - | Influenza A virus | 0.0146 µg/mL
CCC(CC)O[C@@H]1C(SC)=C(C(=O)O)C[C@H](N)[C@H]1NC(C)=O | - | A/PR/8/34 | IC50 | Influenza virus neuraminidase | - | Influenza A virus | 3.1 µM
O=C(O)C(O)P(=O)(O)O | - | - | IC50 | RNA-dependent RNA polymerase | - | Influenza virus | >500 µM
CCC(CC)[C@H](NC(C)=O)[C@@H]1[C@H](O)[C@@H](C(=O)O)C[C@H]1N=C(N)N | - | H3N2 | IC50 | Influenza virus neuraminidase | - | Influenza A virus | 0.0006 µM
CCC(=O)c1c(O)n(O)c2cc(NC(=O)Nc3cccc(C(=O)O)c3)ccc12 | nucleotide incorporation | PR/8/34 | IC50 | Endonuclease | - | Influenza A virus | 14 µM
CCCCCCCCOC1C=C(C(=O)O)C[C@H](N)[C@H]1NC(C)=O | - | - | IC50 | Neuraminidase | - | Influenza A virus | 0.75 µM
CC(C)(C)NC(=O)NC(=S)NC(=O)c1ccc(-c2ccc([N+](=O)[O-])cc2)o1 | - | H1N1 | IC50 | Neuraminidase | - | Influenza A virus | 4.2 µM
CC(O)(C(=O)O)P(=O)(O)O | - | - | IC50 | RNA-dependent RNA polymerase | - | Influenza virus | >500 µM
COCON1C(=O)[C@H]([C@H](O)c2ccccc2)N(Cc2ccc(OC)cc2)[C@@H](CC(C)C)C1=O | - | - | IC50 | Transcriptase | - | Influenza A virus | >200 µM
COc1cc(C)nc(NC(=S)NC(=O)c2ccc(-c3ccc([N+](=O)[O-])cc3)o2)n1 | - | H1N1 | IC50 | Neuraminidase | - | Influenza A virus | 2.3 µM
CCC(CC)Nc1cc(C(=O)O)ccc1NC(C)=O | - | B/LEE/40 | IC50 | Neuraminidase | - | Influenza B virus | 2300 µM
CCC(=O)N[C@@H]([C@@H]1OC(C(=O)O)=C[C@H](N=C(N)N)[C@H]1NC(C)=O)[C@H](O)CO | - | A/PR/8/34 | IC50 | Sialidase | - | Influenza A virus | 0.048 µg/mL
CC(=O)Nc1c(N=C(N)N)cc(C(=O)O)cc1[C@H](O)[C@H](O)CO | - | Influenza A/Shandong/09/93 (H3N2) | Ki | Neuraminidase | - | Influenza A virus | 8 µM
CC(=O)Nc1c(O)cc(C(=O)O)cc1[N+](=O)[O-] | - | Memphis/3/89 | IC50 | Neuraminidase | - | Influenza B virus | 750 µM
O=P(O)(O)P(=O)(O)O | - | - | IC50 | RNA-dependent RNA polymerase | - | Influenza virus | >500 µM
NC(N)=N[C@H]1C=C(C(=O)O)O[C@@H]([C@H](O)[C@H](O)CO)C1 | - | Victoria | IC50 | Influenza B sialidase | - | Influenza B virus | >400 µM
CC(C)[C@H](C(=O)NC(=S)Nc1nc(Cl)cc(Cl)n1)c1ccc(Cl)cc1 | - | H1N1 | IC50 | Neuraminidase | - | Influenza A virus | 0.27 µM
COCON1C(=O)/C(=C/c2ccc(F)cc2)N(Cc2ccc(OC)cc2)[C@@H](Cc2ccccc2)C1=O | - | - | IC50 | Transcriptase | - | Influenza A virus | >200 µM
CC(C)(C)NC(=O)NC(=S)NC(=O)C1C(/C=C(/Cl)C(F)(F)F)C1(C)C | - | H1N1 | IC50 | Neuraminidase | - | Influenza A virus | 12.2 µM
CC(C)CC1=N/C(=C\c2ccc(F)cc2)C(=O)NC1=O | - | - | IC50 | Transcriptase | - | Influenza A virus | 365 µM
O=C(P(=O)(O)O)P(=O)(O)O | - | - | IC50 | RNA-dependent RNA polymerase | - | Influenza virus | 280 µM
CC(=O)N[C@@H]1[C@@H](N=C(N)N)C=C(C(=O)O)O[C@H]1C(F)(F)[C@H](O)CO | - | A/PR/8/34 | IC50 | Sialidase | - | Influenza A virus | 0.04 µg/mL
CC(C)(C)NC(=O)NC(=S)NC(=O)c1ccc(-c2ccccc2Cl)o1 | - | H1N1 | IC50 | Neuraminidase | - | Influenza A virus | 0.43 µM
COCON1C(=O)[C@H]([C@H](OS(C)(=O)=O)c2ccccc2)N(Cc2ccc(OC)cc2)[C@@H](CC(C)C)C1=O | - | - | IC50 | Transcriptase | - | Influenza A virus | >200 µM
CC[C@@H](C)OC1C=C(C(=O)O)C[C@H](N)[C@H]1NC(C)=O | - | - | IC50 | Neuraminidase | - | Influenza A virus | 0.0007 µM
O=C(O)P(=O)(O)O | - | - | IC50 | RNA-dependent RNA polymerase | - | Influenza virus | 30 µM
COc1cc(OC)nc(NC(=S)NC(=O)c2ccc(-c3ccccc3Cl)o2)n1 | - | H1N1 | IC50 | Neuraminidase | - | Influenza A virus | >20 µM
O=P(O)(O)OP(=O)(O)O | - | - | IC50 | RNA-dependent RNA polymerase | - | Influenza virus | 450 µM
CCCCCCCC(=O)N[C@@H]([C@@H]1OC(C(=O)O)=C[C@H](N=C(N)N)[C@H]1NC(C)=O)[C@H](O)CO | - | A/PR/8/34 | IC50 | Sialidase | - | Influenza A virus | 0.047 µg/mL
CC(=O)N[C@H]1[C@H]([C@H](O)[C@H](O)CO)OC(C(=O)O)=C[C@@H]1N | - | H3N2 A/AICHI/2/68 | IC50 | Sialidase | - | Influenza A virus | 0.24 µM
CCC(CC)Nc1cc(C(=O)O)ccc1N1C(=O)CCC1(CO)CO | - | Subtype N1 | IC50 | Neuraminidase | - | Influenza A virus | 79 µM
CC(=O)N[C@H]1[C@H]([C@H](O)[C@H](O)CO)OC(C(=O)O)=C[C@@H]1N | - | - | Ki | Neuraminidase | - | Influenza B virus | 0.1 µM
CC[C@H](C)OC1C=C(C(=O)O)C[C@H](N)[C@H]1NC(C)=O | - | - | IC50 | Neuraminidase | - | Influenza A virus | 0.0008 µM
O=P(O)(O)C(O)P(=O)(O)O | - | - | IC50 | RNA-dependent RNA polymerase | - | Influenza virus | >500 µM
CC(N)C12CC3CC(CC(C3)C1)C2 | nucleotide incorporation | A/PR/1/74 rimantadine-susceptible | inhibition | Virion transcriptase | 200 µg/mL | Influenza A virus | 57%

The last 4 rows once more:

compound,method,strain,endpoint,protein,tested at,organism,result
CC(=O)N[C@H]1[C@H]([C@H](O)[C@H](O)CO)OC(C(=O)O)=C[C@@H]1N,-,-,Ki,Neuraminidase,-,Influenza B virus,0.1 µM
CC[C@H](C)OC1C=C(C(=O)O)C[C@H](N)[C@H]1NC(C)=O,-,-,IC50,Neuraminidase,-,Influenza A virus,0.0008 µM
O=P(O)(O)C(O)P(=O)(O)O,-,-,IC50,RNA-dependent RNA polymerase,-,Influenza virus,>500 µM
CC(N)C12CC3CC(CC(C3)C1)C2,nucleotide incorporation,A/PR/1/74 rimantadine-susceptible,inhibition,Virion transcriptase,200 µg/mL,Influenza A virus,57%

ICn is the concentration giving n% inhibition. Blank or dashed fields: not listed here. Inhibition is in % at the dose shown (toxicity tests: loss of growth or viability).